A mixed list of measured activities; the numbers were collected in NIAID ChemDB.

Common to all: target-level tests

Inhibition is in % at the dose shown (toxicity tests: loss of growth or viability). ICn is the concentration giving n% inhibition. Two numbers with a dash give a range or band. Conditions beyond the fields shown may differ between rows. An empty or dashed field is not shown.

compound,tested at,target,read-out,species,value
COc1ccc(-c2nc3ccc(-c4nc5cc(C(=O)O)ccc5n4C4CCCCC4)cc3nc2-c2ccc(OC)cc2)cc1,100 µM,NS5B polymerase,inhibition,Hepatitis C virus,98.75%
O=C(Nc1ccsc1-c1nc(C(=O)O)c(O)c(=O)[nH]1)OCCc1ccccc1Cl,-,HCV polymerase,IC50,Hepatitis C virus,<25 µM
COc1nc(Nc2ccc3cn[nH]c3c2)nc(N2CCN(CCO)CC2)n1,0.1 µg/mL,Nonstructural protein 5B,inhibition,Hepatitis C virus,37%
COc1ccc(-c2ccc(N(C)C)cc2)c(-c2ccc3cc(-c4nc5cc(C(=O)O)ccc5n4C4CCCCC4)ccc3n2)c1,100 µM,NS5B polymerase,inhibition,Hepatitis C virus,101%
Cc1ccc(S(=O)(=O)Nc2cc(-c3ccc(C#N)cc3)sc2C(=O)O)cc1,-,NS3 ATPase,IC50,Hepatitis C virus,5–20 µM
Nc1ccc(-c2ccc3cc(-c4nc5cc(C(=O)O)ccc5n4C4CCCCC4)ccc3n2)cc1,33 µM,NS5B polymerase,inhibition,Hepatitis C virus,85.08%
Cc1ccccc1S(=O)(=O)Nc1cc(-c2ccc(N=[N+]=[N-])cc2)sc1C(=O)O,-,NS3 ATPase,IC50,Hepatitis C virus,<5 µM
COc1nc(NCCCN2CCOCC2)nc(Nc2ccc3[nH]ncc3c2)n1,1 µg/mL,DNA polymerase,inhibition,Hepatitis B virus,68%
CC(C)CCc1c(-c2ccc(OCc3ccccc3)cc2)nc2c(C(=O)O)c[nH]n2c1=O,-,RNA-dependent RNA polymerase,IC50,Hepatitis C virus,1–10 µM
O=C(NC(Cc1c[nH]c2ccc(O)cc12)C(=O)O)c1ccc2c(c1)nc(-c1ccc3ncc(-c4ccccc4)cc3c1)n2C1CCCCC1,100 µM,NS5B polymerase,inhibition,Hepatitis C virus,98.4%
O=C(O)C(=O)Nc1cnn2c(C3CCCCC3)c(-c3ccc(OCc4ccccc4)cc3)cnc12,-,RNA-dependent RNA polymerase,IC50,Hepatitis C virus,1–10 µM
CNC(=O)c1c(-c2ccc(F)cc2)oc2cc(NS(C)(=O)=O)c(C3CC3)cc12,-,Nonstructural protein 5B,IC50,Hepatitis C virus,≤0.5 µM
O=C(Cc1c(-c2ccccc2)[nH]c2ccccc12)Nc1cscc1-c1nc(C(=O)O)c(O)c(=O)[nH]1,-,HCV polymerase,IC50,Hepatitis C virus,<25 µM
Cc1ccc(C(=O)N(C)c2cc(-c3ccc(F)cc3)sc2C(=O)O)cc1,-,NS3 ATPase,IC50,Hepatitis C virus,<5 µM
O=C(O)c1cc2nc(-c3ccc(C(F)(F)F)cc3)cc(-c3cccc(OCc4ccccc4)c3)n2n1,-,RNA-dependent RNA polymerase,IC50,Hepatitis C virus,>10 µM
CNC(=O)c1c(-c2ccc(F)cc2)oc2c(C)cc(OC)cc12,-,Nonstructural protein 5B,IC50,Hepatitis C virus,≤0.5 µM
O=C(NCc1cc2ccccc2s1)Nc1ccsc1-c1nc(C(=O)O)c(O)c(=O)[nH]1,-,HCV polymerase,IC50,Hepatitis C virus,<25 µM
CCNc1cc2oc(-c3ccc(F)cc3)c(C(=O)NC)c2cc1OC(C)C,-,Nonstructural protein 5B,IC50,Hepatitis C virus,≤0.5 µM
Nc1ccc(-c2ccc3cc(-c4nc5cc(C(=O)O)ccc5n4C4CCCCC4)ccc3n2)cc1Br,33 µM,NS5B polymerase,inhibition,Hepatitis C virus,98.12%
COc1nc(NCCCn2ccnc2)nc(Nc2ccc3[nH]ncc3c2)n1,0.1 µg/mL,DNA polymerase,inhibition,Hepatitis B virus,50%
O=C(O)c1sc(-c2ccccc2)cc1N(Cc1ccc(Cl)cc1)C(=O)C1CCC1,-,NS3 ATPase,IC50,Hepatitis C virus,5–20 µM
COc1nc(NCCN2CCOCC2)nc(Nc2ccc3cn[nH]c3c2)n1,-,DNA polymerase,IC50,Hepatitis B virus,0.01–0.1 µg/mL
O=C(Nc1cccc(-c2nc(C(=O)O)c(O)c(=O)[nH]2)c1)Nc1ccc(Cl)c(Cl)c1,-,HCV polymerase,IC50,Hepatitis C virus,<100 µM
COc1nc(Nc2ccc3[nH]ncc3c2)nc(N2CCC(O)CC2)n1,10 µg/mL,Nonstructural protein 5B,inhibition,Hepatitis C virus,34%
COc1ccc([N+](=O)[O-])cc1COc1cccc(-c2nc(C(=O)O)c(O)c(=O)[nH]2)c1,-,HCV polymerase,IC50,Hepatitis C virus,<100 µM
COc1cc(-c2cc(-c3ccc(Cl)cc3)nc3cc(C(=O)O)nn23)ccc1Cl,-,RNA-dependent RNA polymerase,IC50,Hepatitis C virus,>10 µM
O=C(O)c1sc(-c2ccc(F)cc2)cc1NS(=O)(=O)c1ccccn1,-,NS3 ATPase,IC50,Hepatitis C virus,<5 µM
COCCNc1nc(Nc2ccc3[nH]ncc3c2)nc(OC)n1,-,DNA polymerase,IC50,Hepatitis B virus,0.1–1 µg/mL
O=C(Nc1ccsc1-c1nc(C(=O)O)c(O)c(=O)[nH]1)NC(COCc1ccccc1)c1ccccc1,-,HCV polymerase,IC50,Hepatitis C virus,<25 µM
FC(F)(F)Oc1ccc(COc2cccc(-c3cnc4c(-c5nn[nH]n5)cnn4c3C3CCCCC3)c2)cc1Cl,-,RNA-dependent RNA polymerase,IC50,Hepatitis C virus,1–10 µM
CNC(=O)c1c(-c2ccc(F)cc2)oc2cc(N3CCOCC3)c(OC(C)c3ccc(F)cc3)cc12,-,Nonstructural protein 5B,IC50,Hepatitis C virus,≤0.5 µM
COc1nc(NCCc2ccccn2)nc(Nc2ccc3[nH]ncc3c2)n1,0.01 µg/mL,DNA polymerase,inhibition,Hepatitis B virus,36%
O=C(O)c1nc(-c2ccccc2NS(=O)(=O)c2ccccc2I)[nH]c(=O)c1O,-,HCV polymerase,IC50,Hepatitis C virus,<100 µM
COc1nc(NCCO)nc(Nc2ccc3cn[nH]c3c2)n1,0.1 µg/mL,DNA polymerase,inhibition,Hepatitis B virus,33%
COc1ccc(-c2cc(NS(=O)c3ccccc3C)c(C(=O)O)s2)cc1,-,NS3 ATPase,IC50,Hepatitis C virus,<5 µM
CNC(=O)c1c(-c2ccc(F)cc2)oc2cc(C(C)(C)NS(C)(=O)=O)c(OC)cc12,-,Nonstructural protein 5B,IC50,Hepatitis C virus,≤0.5 µM
COc1ccc(S(=O)(=O)Nc2ccccc2-c2nc(C(=O)O)c(O)c(=O)[nH]2)cc1C(=O)O,-,HCV polymerase,IC50,Hepatitis C virus,<100 µM
O=C(O)c1ccc2c(c1)nc(-c1ccc3nc(-c4cnccn4)ccc3c1)n2C1CCCCC1,100 µM,NS5B polymerase,inhibition,Hepatitis C virus,98.23%
CC(C)C(=O)N(Cc1ccc(F)cc1F)c1cc(-c2ccccc2)sc1C(=O)O,-,NS3 ATPase,IC50,Hepatitis C virus,5–20 µM
CNC(=O)c1c(-c2ccc(F)cc2)oc2cc(N(CCO)S(C)(=O)=O)c(C3CC3)cc12,-,Nonstructural protein 5B,IC50,Hepatitis C virus,≤0.5 µM
COc1nc(NCCCN2CCCC2=O)nc(Nc2ccc3[nH]ncc3c2)n1,1 µg/mL,DNA polymerase,inhibition,Hepatitis B virus,60%
Cc1ccc(C(=O)N(C)c2cc(-c3cccc(C)c3)sc2C(=O)O)cc1,-,NS3 ATPase,IC50,Hepatitis C virus,<5 µM

A second listing of 3 rows from above:

| compound | tested at | target | read-out | species | value |
|---|---|---|---|---|---|
| O=C(O)C(=O)Nc1cnn2c(C3CCCCC3)c(-c3ccc(OCc4ccccc4)cc3)cnc12 | - | RNA-dependent RNA polymerase | IC50 | Hepatitis C virus | 1–10 µM |
| Cc1ccc(C(=O)N(C)c2cc(-c3ccc(F)cc3)sc2C(=O)O)cc1 | - | NS3 ATPase | IC50 | Hepatitis C virus | <5 µM |
| O=C(Nc1ccsc1-c1nc(C(=O)O)c(O)c(=O)[nH]1)OCCc1ccccc1Cl | - | HCV polymerase | IC50 | Hepatitis C virus | <25 µM |